Test results published in PMC9499943 (2022).

Tests used:
[1] = molecular target: T1, His-tagged RBD (RBD-His) protein of SARS-CoV-2 (SARS-CoV-2, UniProt P0DTC2 319-541); assay: BLI; RBD loaded at 1000 ng/ml (avidity)
[2] = molecular target: T1, His-tagged RBD (RBD-His) protein of …; assay: BLI; RBD loaded at 200 ng/ml (avidity)

B1: CoV2-06 (antibody, V domains shown)
VH: QVELQESGPGLVKPSGTLSLTCAVSGGSISSNNWWTWVRQPPGKGLEWIGEIHHSGGTNYNPSLKSRVTMSVDKSKNQFSLNLYSVTAADTAVYYCTRDRAGGTYSGFDFWGQGTLVTVSS
VL: QAVVTQPASVSGSPGQSITISCTGTSSDVGGYNYVSWYQQHPGKAPKLMIYDVSNRPSGVSNRFSGSKSGNTASLTISGLQAEDEADYYCSSYTSSSTVVFGGGTKVTVL
- koff [1]: 1.26e-05 s⁻¹
- koff [2]: 5.8e-05 s⁻¹
